{
  "source": "paper PMC7604311",
  "about": "“Caprine Bactenecins as Promising Tools for Developing New Antimicrobial and Antitumor Drugs” (Frontiers in Cellular and Infection Microbiology, 2020)",
  "system": "human PBMC vs K562 and U937",
  "test": "Selectivity index SIn/t (normal vs tumor cells)",
  "note": "Peptide text beside a SMILES is read from it.",
  "data": [
    {"smiles": "CC[C@H](C)[C@H](NC(=O)[C@H](CCCNC(=N)N)NC(=O)[C@@H](NC(=O)[C@H](Cc1ccccc1)NC(=O)[C@@H]1CCCN1C(=O)[C@@H]1CCCN1C(=O)[C@@H]1CCCN1C(=O)[C@H](Cc1c[nH]cn1)NC(=O)[C@@H](NC(=O)[C@H](CCCNC(=N)N)NC(=O)[C@H](CCCNC(=N)N)NC(=O)[C@H](Cc1ccccc1)NC(=O)[C@@H]1CCCN1C(=O)[C@H](CC(C)C)NC(=O)[C@H](CCCNC(=N)N)NC(=O)[C@H](Cc1ccccc1)NC(=O)[C@@H](N)CCCNC(=N)N)[C@@H](C)CC)C(C)C)C(=O)N[C@@H](Cc1c[nH]cn1)C(=O)N1CCC[C@H]1C(=O)N1CCC[C@H]1C(=O)N1CCC[C@H]1C(=O)N[C@@H](Cc1ccccc1)C(=O)N[C@@H](Cc1ccc(O)cc1)C(=O)N[C@@H](CCCNC(=N)N)C(=O)N[C@@H](CCCNC(=N)N)C(=O)N[C@@H](Cc1ccccc1)C(=O)N[C@@H](CC(C)C)C(=O)O", "note": "[ChBac3.4-1-COOH (rec)] (H-RFRLPFRRIHPPPFVRIHPPPFYRRFL-OH; N-terminus assumed)", "values": [
      {"measurement": "SIn/t IC50PBMC/IC50K562∙IC50U937", "setting": "IC50 PBMC over geometric mean of IC50s toward K562 and U937", "result": 3.3},
      {"measurement": "SIn/t ratio to ChBac3.4", "setting": "ratio of SIn/t of the peptide to SIn/t of native ChBac3.4-NH2 (square brackets)", "result": 1.9}
    ]}
  ]
}
